Consider three molecules from US20180079802A1 (VANDERBILT UNIVERSITY, published 2018).

Residue numbers refer to the chain shown, from its start. Bounds are passed on as bounds.

The target in the test is T1, Recombinant CHIKV E2 ectodomain protein (corresponding to the CHIKV-LR2006 strain) (Chikungunya virus strain LR2006).
T1 construct: extracellular domain; also called CHIKV-LR2006 E2 ectodomain; purified E2 protein
Description: ELISA, E2 ectodomain coated, mAb at 10 µg/mL. A general note: ELISA stands for enzyme-linked immunosorbent assay.

B1: 2B4 (antibody, V domains shown)
VH: QVQLVQSGSELKKPGASVKVSCKASGYSFTSYSINWVRQAPGQGPEWMGWIDTNTGNPTYAQDFAGRFVFSLDTSVTTAYLQISSLKAGDTAVYYCATYYVDLWGSYRQDYYGMDVWGH
VL: QSVLTQPPSASGTPGQRVTISCSGGSSNIGSNPVNWYQMVPGTAPKLLLYTNNQRPSGVPDRFSGSKSGTSASLAINGLQSEDEADYYCAVWDDSLSGRWVFGGGTKVTVL
For B1, the OD lay in the range of 0.5 to 0.99 od.

B2: 4J21 (antibody, V domains shown)
VH: QVQLVQSGSELKKPGASVKVSCKASGYSFTSYSINWVRQAPGQGPEWMGWIDTNTGNPTYAQDFAGRFVFSLDTSVTTAYLQISSLKAGDTAVYYCATYYVDLWGSYRQDYYGMDVWGHGTLVTVSS
VL: B1 VL with L4V, A10V, R17G, V108L
B2: the OD was 0.5 to 0.99 od.

B3: 5O14 (antibody, V domains shown)
VH: QVQLVQSGGRVVQAGRSLRLSCAASGFTFSMYGVHWVRQAPGKGLEWVAVIWNDGSKEYYGDSVKGRFTISRDNSRNTLYLQMNSLRVDDTAVYFCARDGIPDPERGDYGGLDYWGQGTLVTVSS
VL: QTVVTQFPSSPFASVGDGVTITCRARQSISSYVNWYQQKPGKAPKLLIYATSSLQSGVPSRFSGSGYGTDFTLTISGLQPEDFATYYCQQSYSFPRTFGQGTKVEIK
With B3, the OD is above 1 od.
